Anti-infective test results gathered from many reports (values: NIAID ChemDB through PubChem).

Common to all: tests in culture

ECn is the concentration giving n% inhibition of infection, replication or growth. Fold resistance: result on the changed form divided by that on wild type. Inhibition is in % at the dose shown (toxicity tests: loss of growth or viability). A number after MIC or MFC names an inhibition level or a share of isolates. Lines come from different laboratories, so protocols vary. Blank or dashed fields: not listed here. Zones are inhibition diameters on agar.

SMILES	cell line	species	measure	changes	strain	method	dose	value
CN(C)c1ccc(O)c2c1C[C@H]1C[C@H]3[C@H](N(C)C)C(=O)C(C(N)=O)=C(O)[C@@]3(O)C(=O)C1=C2O	MRC-5 fibroblasts	Encephalitozoon cuniculi	inhibition	-	-	cytopathic effect	5 µg/mL	4%
C#CC[C@@H](C(=O)N[C@H](/C=C/C(=O)OCC)C[C@@H]1CCNC1=O)n1cccc(NC(=O)c2cc(C)on2)c1=O	H1-HELA	Rhinovirus	EC50	-	Serotype 68	cytopathic effect / XTT	-	0.076 µM
CN(C)c1ccc(O)c2c1C[C@H]1C[C@H]3[C@H](N(C)C)C(=O)C(C(N)=O)=C(O)[C@@]3(O)C(=O)C1=C2O	-	Staphylococcus aureus	MIC50	-	24 strains (ofloxacin-susceptible)	-	-	0.12 µg/mL
O=c1[nH]cc(F)c(=O)[nH]1	MRC-5 fibroblasts	Encephalitozoon cuniculi	EC50	-	-	cytopathic effect	-	<2 µg/mL
CN(C)c1cc(NC(=O)CNC(C)(C)C)c(O)c2c1C[C@H]1C[C@H]3[C@H](N(C)C)C(=O)C(C(N)=O)=C(O)[C@@]3(O)C(=O)C1=C2O	-	Mycobacterium abscessus	MIC	-	V139	broth dilution	-	2 µg/mL
Cc1ncc([N+](=O)[O-])n1CCO	MRC-5 fibroblasts	Encephalitozoon cuniculi	inhibition	-	-	cytopathic effect	10 µg/mL	3%
CC(=O)Oc1ccccc1C(=O)Nc1ncc([N+](=O)[O-])s1	RK-13	Encephalitozoon intestinalis	inhibition	-	-	-	0.1 µg/mL	48.5%
Nc1ccc(S(=O)(=O)Nc2ncccn2)cc1	MRC-5 fibroblasts	Encephalitozoon cuniculi	inhibition	-	-	cytopathic effect	50 µg/mL	0%
Nc1ncnc2c1ncn2C[C@@H](CO)OCP(=O)(O)O	-	Adenovirus	EC90	-	TAK (TYPE 41)	virus yield	-	7 µg/mL
COc1ccc(OC)c(NCc2cnc3nc(N)nc(N)c3c2C)c1	RK-13	Encephalitozoon intestinalis	inhibition	-	-	-	1 µg/mL	65.8%
Nc1ccn(C[C@@H](CO)OCP(=O)(O)O)c(=O)n1	-	Adenovirus	EC90	-	adenoid 75 (TYPE 5)	virus yield	-	2 µg/mL
CN(C)[C@@H]1C(=O)C(C(N)=O)=C(O)[C@@]2(O)C(=O)C3=C(O)c4c(O)c(NC(=O)CNc5ccccc5)cc(F)c4C[C@H]3C[C@@H]12	-	Enterococcus faecalis	EC50	-	159-tet	agar diffusion	-	2 µg/mL
Cc1c(N2C[C@@H](F)[C@@H](C3(N)CC3)C2)c(F)c(N)c2c(=O)c(C(=O)O)cn([C@@H]3C[C@@H]3F)c12	-	Haemophilus influenzae	MIC50	-	38 strains (ampicillin-susceptible)	-	-	0.008 µg/mL
Nc1ncnc2c1ncn2[C@H]1C=C[C@H](O)[C@@H]1O	CV-1	Measles virus	EC50	-	-	cytopathic effect	-	1 µg/mL
Cc1ccnc2c1NC(=O)c1cccnc1N2C1CC1	MT-4	HIV-1	EC95	RT-D67N K70R T215Y K219Q K103N	-	-	-	>3 µM
CO[C@H]1/C=C/O[C@@]2(C)Oc3c(C)c(O)c4c(O)c(c5c(c4c3C2=O)NC2(CCN(CC(C)C)CC2)N=5)=NC(=O)/C(C)=C\C=C\[C@H](C)[C@H](O)[C@@H](C)[C@@H](O)[C@@H](C)[C@H](OC(C)=O)[C@@H]1C	-	Staphylococcus aureus	MIC90	-	20 strains (methicillin-susceptible)	-	-	0.0313 µg/mL
C[C@H]1CN(c2c(F)cc3c(=O)c(C(=O)O)cn(C4CC4)c3c2OC(F)F)CCN1	-	Streptococcus pneumoniae	MIC50	-	30 strains	-	-	0.25 µg/mL
CO[C@@H]1[C@H](OC(=O)NC(=O)CCl)CC[C@]2(CO2)[C@H]1[C@@]1(C)O[C@@H]1CC=C(C)C	RK-13	Encephalitozoon intestinalis	inhibition	-	-	-	0.0001 µg/mL	44.5%
CCO/N=C/c1ccc(OCCC2CCN(c3ccc(C)nn3)CC2)cc1	KB	Rhinovirus	EC50	-	1963M-CV40 (LDL receptor group 62)	neutral red	-	0.092 µM
COc1cc(C[C@H](C)[C@H](C)Cc2ccc(O)c(O)c2)ccc1O	-	Candida parapsilosis	MIC80	-	CCC 124-2000	broth dilution	-	62.5 µg/mL
CCOC(=O)Nc1cc2c(c(N)n1)N=C(c1cccc(OC)c1)CO2	RK-13	Encephalitozoon intestinalis	inhibition	-	-	-	0.01 µg/mL	39.5%
CC[C@H]1OC(=O)[C@H](C)[C@@H](O[C@H]2C[C@@](C)(OC)[C@@H](O)[C@H](C)O2)[C@H](C)[C@@H](O[C@@H]2O[C@H](C)C[C@H](N(C)C)[C@H]2O)[C@](C)(OC)C[C@@H](C)C(=O)[C@H](C)[C@@H](O)[C@]1(C)O	-	Staphylococcus aureus	MIC90	-	20 strains (methicillin-susceptible)	-	-	16 µg/mL
NC(=O)c1ncn([C@@H]2O[C@H](CO)[C@@H](O)[C@H]2O)n1	CV-1	Measles virus	EC50	-	CC	neutral red	-	20 µg/mL
CC1(C)[C@@H](O[C@H]2O[C@H](C(=O)O)[C@@H](O)[C@H](O)[C@H]2O[C@@H]2O[C@H](C(=O)O)[C@@H](O)[C@H](O)[C@H]2O)CC[C@]2(C)[C@H]3C(=O)C=C4[C@@H]5C[C@@](C)(C(=O)O)CC[C@]5(C)CC[C@@]4(C)[C@]3(C)CC[C@@H]12	VERO	Dengue virus	EC90	-	Type 1 (Hawaii)	virus yield	-	316 µg/mL
CN[C@@H]1[C@H](O[C@H]2[C@H](O[C@H]3[C@H](O)[C@@H](O)[C@H](N=C(N)N)[C@@H](O)[C@@H]3N=C(N)N)O[C@@H](C)[C@]2(O)C=O)O[C@@H](CO)[C@H](O)[C@H]1O	-	Klebsiella pneumoniae	zone	-	ESBL-75799	agar diffusion	250 µg/disc	22 mm
COc1cc(Cc2cnc(N)nc2N)cc(OC)c1OCCCNc1ccc(S(=O)(=O)c2ccc(N)cc2)cc1	-	Mycobacterium ulcerans	MBC	-	Isolate 94-886	-	-	8 µg/mL
CC(=O)NC[C@H]1CN(c2ccc(N3CCOCC3)c(F)c2)C(=O)O1	-	Staphylococcus aureus	MIC50	-	24 strains (ofloxacin-susceptible)	-	-	2 µg/mL
CC(C)(CO)C(=O)SCCOP(=O)(NCc1ccccc1)OC[C@H]1O[C@@H](n2cnc3c(=O)[nH]c(N)nc32)[C@](C)(O)[C@@H]1O	Replicon cells	Hepatitis C virus	fold resistance	Q30R	GT1a	replicon	-	1.04
CCCCCCCCCCCCCCCCCCCCCCOCC(C)(COCCCCCCCCCCCCCCCCCCCCCC)CO[C@]1(C(=O)O)C[C@H](OS(=O)(=O)O)[C@@H](NC(C)=O)[C@H]([C@H](OS(=O)(=O)O)[C@@H](COS(=O)(=O)O)OS(=O)(=O)O)O1	HEP-2	Respiratory syncytial virus	EC50	-	LONG	ELISA	-	0.2 µM
COc1cc(Cc2cnc(N)nc2N)cc(OC)c1OC	-	Mycobacterium ulcerans	MIC	-	Isolate 94-539	-	-	>16 µg/mL
NC12CC3CC(CC(C3)C1)C2	MDCK	Influenza B virus	EC50	-	Guangdong/5/94	plaque count	-	>50 µg/mL
Nc1ccn([C@@H]2C[C@H](CO)[C@@H](O)[C@H]2O)c(=O)n1	BSC-1A	Vesicular stomatitis virus	EC50	-	-	cytopathic effect	-	300 µg/mL
C=CCc1ccc(O)c(-c2ccc(O)c(CC=C)c2)c1	-	Candida albicans	MIC	-	YL 349	broth dilution	-	64 µg/mL
Cc1onc(-c2ccccc2)c1C(=O)N[C@@H]1C(=O)N2[C@@H]1SC(C)(C)[C@@H]2C(=O)O	-	Staphylococcus aureus	MIC50	-	25 strains (ofloxacin-resistant)	-	-	>128 µg/mL
CO[C@H]1/C=C/O[C@@]2(C)Oc3c(C)c(O)c4c(O)c(c5c(c4c3C2=O)NC2(CCN(CC(C)C)CC2)N=5)=NC(=O)/C(C)=C\C=C\[C@H](C)[C@H](O)[C@@H](C)[C@@H](O)[C@@H](C)[C@H](OC(C)=O)[C@@H]1C	MRC-5 fibroblasts	Encephalitozoon cuniculi	inhibition	-	-	cytopathic effect	1 µg/mL	0%
C[C@@H](c1nc(-c2ccc(C#N)cc2)cs1)[C@](O)(Cn1cnnc1)c1ccc(F)cc1F	-	Candida albicans	MIC	-	A28970	-	-	1 µg/mL
COc1c(N2C[C@@H]3CCCN[C@@H]3C2)c(F)cc2c(=O)c(C(=O)O)cn(C3CC3)c12	-	Staphylococcus aureus	MIC90	-	25 strains (methicillin-susceptible)	-	-	0.12 µg/mL
CC[C@H]1OC(=O)[C@H](C)[C@@H](O[C@H]2C[C@@](C)(OC)[C@@H](O)[C@H](C)O2)[C@H](C)[C@@H](O[C@@H]2O[C@H](C)C[C@H](N(C)C)[C@H]2O)[C@](C)(OC)C[C@@H](C)C(=O)[C@H](C)[C@@H](O)[C@]1(C)O	-	Mycobacterium massiliense	MIC	-	V44	broth dilution	-	0.25 µg/mL
Nc1nc2c(ncn2CCOCP(=O)(O)O)c(=O)[nH]1	-	Measles virus	EC50	-	Chicago	cytopathic effect	-	0.03 µg/mL
CO[C@H]1[C@@H](OC(=O)/C=C/C=C/C=C/C=C/C(=O)O)CC[C@@]2(CO2)[C@@H]1[C@@]1(C)O[C@@H]1CC=C(C)C	RK-13	Vittaforma corneae	inhibition	-	-	-	0.0005 µg/mL	38.4%
COc1c(N2CCNC(C)C2)c(F)cc2c(=O)c(C(=O)O)cn(C3CC3)c12	-	Staphylococcus aureus	MIC50	-	24 strains (ofloxacin-susceptible)	-	-	0.12 µg/mL

A second listing of 5 rows from above:

SMILES,cell line,species,measure,changes,strain,method,dose,value
COc1ccc(OC)c(NCc2cnc3nc(N)nc(N)c3c2C)c1,RK-13,Encephalitozoon intestinalis,inhibition,-,-,-,1 µg/mL,65.8%
Cc1c(N2C[C@@H](F)[C@@H](C3(N)CC3)C2)c(F)c(N)c2c(=O)c(C(=O)O)cn([C@@H]3C[C@@H]3F)c12,-,Haemophilus influenzae,MIC50,-,38 strains (ampicillin-susceptible),-,-,0.008 µg/mL
Nc1ccn([C@@H]2C[C@H](CO)[C@@H](O)[C@H]2O)c(=O)n1,BSC-1A,Vesicular stomatitis virus,EC50,-,-,cytopathic effect,-,300 µg/mL
CC(=O)Oc1ccccc1C(=O)Nc1ncc([N+](=O)[O-])s1,RK-13,Encephalitozoon intestinalis,inhibition,-,-,-,0.1 µg/mL,48.5%
CC1(C)[C@@H](O[C@H]2O[C@H](C(=O)O)[C@@H](O)[C@H](O)[C@H]2O[C@@H]2O[C@H](C(=O)O)[C@@H](O)[C@H](O)[C@H]2O)CC[C@]2(C)[C@H]3C(=O)C=C4[C@@H]5C[C@@](C)(C(=O)O)CC[C@]5(C)CC[C@@]4(C)[C@]3(C)CC[C@@H]12,VERO,Dengue virus,EC90,-,Type 1 (Hawaii),virus yield,-,316 µg/mL